Data reported in publication PMC10222858 (Marine Drugs, 2023).

The chains behind the UniProt entries cited, without tags or fusion partners.
UniProt P04757, whole entry, looked up: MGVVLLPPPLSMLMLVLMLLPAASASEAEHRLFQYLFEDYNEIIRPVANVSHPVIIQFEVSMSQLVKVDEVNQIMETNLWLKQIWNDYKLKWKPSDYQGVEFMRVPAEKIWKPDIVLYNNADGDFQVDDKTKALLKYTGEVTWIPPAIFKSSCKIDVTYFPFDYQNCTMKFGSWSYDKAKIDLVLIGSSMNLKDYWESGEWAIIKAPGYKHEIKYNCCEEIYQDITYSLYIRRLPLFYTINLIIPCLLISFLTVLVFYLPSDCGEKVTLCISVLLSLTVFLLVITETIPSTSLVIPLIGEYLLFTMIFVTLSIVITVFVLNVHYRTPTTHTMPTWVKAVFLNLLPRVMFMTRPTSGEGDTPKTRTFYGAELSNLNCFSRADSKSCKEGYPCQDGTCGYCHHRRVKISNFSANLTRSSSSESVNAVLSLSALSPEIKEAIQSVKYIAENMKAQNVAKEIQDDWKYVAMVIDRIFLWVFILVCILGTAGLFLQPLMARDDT
UniProt P12392, whole entry, looked up: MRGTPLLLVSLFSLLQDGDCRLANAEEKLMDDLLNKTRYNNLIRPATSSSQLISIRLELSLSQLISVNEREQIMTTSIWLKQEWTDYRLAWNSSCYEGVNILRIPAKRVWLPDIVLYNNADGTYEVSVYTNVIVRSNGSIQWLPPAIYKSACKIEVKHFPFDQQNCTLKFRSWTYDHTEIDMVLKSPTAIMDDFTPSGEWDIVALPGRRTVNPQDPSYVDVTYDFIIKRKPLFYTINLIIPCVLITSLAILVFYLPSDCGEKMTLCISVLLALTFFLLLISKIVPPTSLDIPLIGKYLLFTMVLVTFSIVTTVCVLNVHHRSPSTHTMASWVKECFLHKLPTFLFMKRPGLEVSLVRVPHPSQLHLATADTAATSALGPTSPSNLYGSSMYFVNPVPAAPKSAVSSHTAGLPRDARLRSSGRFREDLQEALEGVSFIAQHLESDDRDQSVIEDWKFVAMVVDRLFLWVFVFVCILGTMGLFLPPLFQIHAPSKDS
UniProt P43143, whole entry, looked up: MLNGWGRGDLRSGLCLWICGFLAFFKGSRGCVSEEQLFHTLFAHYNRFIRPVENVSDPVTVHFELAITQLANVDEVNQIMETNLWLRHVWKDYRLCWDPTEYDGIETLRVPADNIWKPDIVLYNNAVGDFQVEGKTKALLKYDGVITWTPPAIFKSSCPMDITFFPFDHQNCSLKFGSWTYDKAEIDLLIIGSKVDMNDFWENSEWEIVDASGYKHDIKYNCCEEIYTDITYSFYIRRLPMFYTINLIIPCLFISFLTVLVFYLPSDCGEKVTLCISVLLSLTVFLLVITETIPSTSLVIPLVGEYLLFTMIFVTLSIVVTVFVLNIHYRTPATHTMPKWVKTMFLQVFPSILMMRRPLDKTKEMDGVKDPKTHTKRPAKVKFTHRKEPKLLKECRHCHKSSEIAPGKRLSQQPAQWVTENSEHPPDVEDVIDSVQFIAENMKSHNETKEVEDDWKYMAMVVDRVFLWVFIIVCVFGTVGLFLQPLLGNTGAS

Target: rα6/α3β4 nAChRs (Rattus norvegicus, UniProt P04757+P12392+P43143)
Test: Two-electrode voltage clamp on Xenopus oocytes expressing rα6/α3β4 nAChRs
Format: cell-based
Settings: oocyte voltage clamp, 100 μM ACh, compared with WT-TxID

Compound | inhibition of rα6/α3β4 nAChRs in words
CC[C@H](C)[C@@H]1NC(=O)[C@@H]2CCCN2C(=O)[C@H](CCSC)NC(=O)[C@H](C)NC(=O)[C@H](CO)NC(=O)[C@@H]2CSSC[C@H](NC(=O)CN)C(=O)N[C@@H](CSSC[C@@H](C(N)=O)NC1=O)C(=O)N[C@@H](CO)C(=O)N[C@@H](Cc1c[nH]cn1)C(=O)N1CCC[C@H]1C(=O)N[C@@H](C(C)C)C(=O)N2 | no significant blocking effect
CC[C@H](C)[C@@H]1NC(=O)[C@@H]2CCCN2C(=O)[C@H](CO)NC(=O)[C@H](C)NC(=O)[C@H](CO)NC(=O)[C@@H]2CSSC[C@H](NC(=O)CN)C(=O)N[C@@H](CSSC[C@@H](C(N)=O)NC1=O)C(=O)N[C@@H](CO)C(=O)N[C@@H](Cc1c[nH]cn1)C(=O)N1CCC[C@H]1C(=O)N[C@@H](C(C)C)C(=O)N2 | no significant blocking effect
